Pooled drug test results. Numbers come from NIAID ChemDB, via PubChem.

Shared fields: tests in culture; species: Mycobacterium tuberculosis

ECn: concentration that inhibits the pathogen or its effect by n%. Conditions beyond the fields shown may differ between rows. MIC bound: limit read from a one-dose screen. An empty or dashed field is not shown. Percent inhibition refers to the dose given; in toxicity tests it is the harm to the cells.

compound	strain or isolate	cell line	method	read-out	dose	result
O=C/C=C/c1ccc([N+](=O)[O-])cc1Cl	H37Rv	VERO		MIC		6.25 µg/mL
Nc1nc(-c2ccccc2)c2ncn(Cc3ccccc3)c2n1	H37Rv		BACTEC	EC50		>12.5 µg/mL
CN(C)CCOc1ccc2c(c1)C/C(=C\c1ncc([N+](=O)[O-])n1C)C2=O	H37Rv		resazurin	MIC bound		>6.25 µg/mL
CO[C@H]1/C=C/O[C@@]2(C)Oc3c(C)c(O)c4c(O)c(c(/C=N/N5CCN(C6CCCC6)CC5)c(O)c4c3C2=O)NC(=O)/C(C)=C\C=C\[C@H](C)[C@H](O)[C@@H](C)[C@@H](O)[C@@H](C)[C@H](OC(C)=O)[C@@H]1C	H37Ra			Median MIC		0.003 µg/mL
COc1ccc(C(=O)Nc2ccc(C(=O)N/N=C/c3ccc(Cl)cc3)cc2)cc1	H37Rv			MIC		>6.25 µg/mL
Cc1ccn2cc(-c3cc4cc(Br)ccc4oc3=O)nc2c1	H37Rv		BACTEC	inhibition	6.25 µg/mL	3%
CC(=O)O[C@H]1C[C@@]2(C)[C@@H](C[C@@H](O)[C@H]3[C@@]4(C)CC[C@@H](O)[C@@H](C)[C@@H]4CC[C@@]32C)/C1=C(\CCC=C(C)C)C(=O)O	H37Ra			Mean MIC		5 µg/mL
CC1=C(C(=O)NCCNC(=O)C2=C(C)OCC2)CCO1	H37Rv		resazurin	inhibition	6.25 µg/mL	16%
Cc1ccc2nc(SCc3cccc4ccccc34)[nH]c2c1	My 331/88			MIC		32 µM
CCCCc1ccc2nc(C)cc(N/N=C/c3ccc(OC)c4ccccc34)c2c1	H37Rv	VERO		inhibition	12.5 µg/mL	100%
C[C@H]1COc2c(N3CCN(C)CC3)c(F)cc3c(=O)c(C(=O)O)cn1c23	Strain 474			MIC		0.125 µg/mL
c1coc(C2=Nc3cccc4cccc(c34)N2)c1	H37Rv		BACTEC	MIC bound		>12.5 µg/mL
Cc1ccc(NN2C(N)=C(C#N)C(c3cc4cc(C)ccc4nc3Cl)C3=C2CC(C)(C)CC3=O)cc1	H37Rv		agar	MIC		32 µg/mL
C=C(C)C1CC=C(C)/C(=N/NC(=O)c2cccnc2)C1	KM-R			MIC		0.4 µg/mL
Nc1cccc2nc(-c3cc4cccc([N+](=O)[O-])c4oc3=O)cn12	H37Rv		BACTEC	MIC		>6.25 µg/mL
CCN(CC)CCCn1c2cc(=O)c(=O)cc-2[nH]c2cc(C)ccc21	H37Rv		BACTEC	inhibition	12.5 µg/mL	3%
COc1ccc(C(=O)Nc2ccc(C(=O)N/N=C/c3ccc(F)cc3)cc2)cc1	H37Rv			MIC		>6.25 µg/mL
CN(C)c1ccc2ccc(N(C)C)nc2c1	H37Rv		BACTEC	MIC bound		>12.5 µg/mL
Clc1ncnc2c1nc(C#Cc1ccccc1)n2Cc1ccccc1	H37Rv		BACTEC	EC50		>12.5 µg/mL
Cc1ccc2nc(Cl)c(C3C(C#N)=C(N)N(Nc4ccc(F)cc4)C4=C3C(=O)CC(C)(C)C4)cc2c1	H37Rv		agar	MIC		33 µg/mL
CCN(CC)c1ccc(/C=N/Nc2cc(C)nc3cc(OC)ccc23)cc1	H37Rv	VERO		MIC		12.5 µg/mL
NC(=O)c1ccc[n+](CCO)c1.[Cl-]	H37Rv		BACTEC	MIC bound		>12.5 µg/mL
CCOc1cc(/C=N/NC(=O)c2ccc(F)cc2)ccc1O	H37Rv			EC50		>6.25 µg/mL
CO[C@H]1/C=C/O[C@@]2(C)Oc3c(C)c(O)c4c(O)c(c5c(c4c3C2=O)NC2(C[C@@H](c3ccccc3)N[C@@H](c3ccccc3)C2)N=5)=NC(=O)/C(C)=C\C=C\[C@H](C)[C@H](O)[C@@H](C)[C@H](O)[C@H](C)[C@H](OC(C)=O)[C@@H]1C	ATCC 35838 (rifampicin- rifabutin-resistant)			MIC		1 µg/mL
CCCCc1ccc(C(=O)Oc2c(OC)cc3ccnc4c3c2N(C)C=C4)cc1	H37Rv			MIC		>128 µg/mL
COc1cccc2cc(-c3cn4cc(Br)ccc4n3)c(=O)oc12	H37Rv		BACTEC	MIC		>6.25 µg/mL
C=C(OCC)c1nc(/C=C/c2ccccc2)c2ncn(Cc3ccccc3)c2n1	H37Rv		BACTEC	EC50		<12.5 µg/mL
CSCCC(NC(=O)C(CC(C)C)NC(=O)C1CCCN1C(=O)C(Cc1ccccc1)NC(=O)C(Cc1ccccc1)NC(=O)C(CCC(=O)O)NC(=O)OC(C)(C)C)C(N)=O	H37Rv		resazurin	MIC bound		>6.25 µg/mL
CC1(C)CC(=O)C2=C(C1)N(Nc1ccc(Cl)cc1)C(N)=C(C#N)C2c1cc2ccccc2nc1Cl	H37Rv		agar	MIC		22 µg/mL
C/C=C/c1cc(OC)c2c(c1)C(C)C(c1ccc(O)c(OC)c1)O2	H37Rv		BACTEC	MIC bound		>12.5 µg/mL
N[C@@H]1CONC1=O	H37Ra			Median MIC		25 µg/mL
COc1ccccc1N1C(=O)/C(=N\OC(=O)c2c(-c3c(Cl)cccc3Cl)noc2C)SC1=S	H37Rv		BACTEC	MIC		≥12.8 µg/mL
COc1c(N2CCNC(C)C2)c(F)cc2c(=O)c(C(=O)O)cn(C3CC3)c12	Strain 23			MIC		0.125 µg/mL
C[C@@H]1CN(c2c(F)c(N)c3c(=O)c(C(=O)O)cn(C4CC4)c3c2F)C[C@H](C)N1	H37Ra			Mean MIC		0.047 µg/mL
CC[CH2][Sn]([Br])([Br])[CH2]CC.c1cnc2c(c1)ccc1cccnc12	H37Rv	VERO		MIC		6.25 µg/mL
c1cncc(CSc2ncn[nH]2)c1	My 331/88			MIC		>1000 µM
CCCCOc1ccc2nc(C)cc(NN)c2c1	H37Rv	VERO		inhibition	12.5 µg/mL	99%
CC1=NOC(=O)C1N=Nc1ccc(Br)cc1C	H37Rv		resazurin	inhibition	6.25 µg/mL	46%
CN(C)c1ccc(O)c2c1C[C@H]1C[C@H]3[C@H](N(C)C)C(=O)C(C(N)=O)=C(O)[C@@]3(O)C(=O)C1=C2O	H37Rv			Mean MIC		3.5 µg/mL
CCOc1ccc2c(N/N=C/c3ccc(OC)c4ccccc34)ccnc2c1	H37Rv	VERO		inhibition	12.5 µg/mL	100%
C/C(=N\Nc1ccc([N+](=O)[O-])cn1)c1ccc(N)cc1	H37Rv		BACTEC	inhibition	12.5 µg/mL	13%
COc1ccc(C(=O)Nc2ccc(C(=O)NNC(=S)Nc3ccc(C)cc3)cc2)cc1	H37Rv			inhibition	6.25 µg/mL	0%
O=C(CCl)NC(=O)N(/N=C/c1ccco1)c1ccccc1	H37Rv		BACTEC	inhibition	12.5 µg/mL	2%
O=C(N/N=C/c1ccc(Br)s1)c1ccc(F)cc1	H37Rv			MIC		<6.25 µg/mL
c1ccc(CSc2nc3ccccc3o2)nc1	My 331/88			MIC		32 µM
Cc1ccc(S(=O)(=O)C(=S)N(C)N(C)C)cc1	EMB-R			MIC		12.8 µg/mL
Cc1cc(-c2cc3c(cc2F)c(=O)c(C(=O)O)cn3C2CC2)cc(C)n1	126-4			MIC		1 µg/mL
COc1ccc(NN2C(N)=C(C#N)C(c3cc4cc(C)ccc4nc3Cl)C3=C2CC(C)(C)CC3=O)cc1	H37Rv		agar	MIC		3 µg/mL
COc1cc2ccnc3c2c(c1OC(=O)c1ccc(C(C)(C)C)cc1)N(C)C=C3	H37Rv			MIC		>128 µg/mL
Cc1ccn2cc(-c3cc4cccc([N+](=O)[O-])c4oc3=O)nc2c1	H37Rv		BACTEC	MIC		>6.25 µg/mL
O=C(N/N=C/c1ccc([N+](=O)[O-])s1)c1ccc(F)cc1	H37Rv			EC50		<6.25 µg/mL
CCCCc1ccc2nc(C)cc(N/N=C/c3ccc4c(c3)OCO4)c2c1	H37Rv	VERO		MIC		6.25 µg/mL
N#CC1CN(Cc2ccccc2)C(=O)C1=O	H37Rv		resazurin	MIC bound		>6.25 µg/mL
COc1ccc(C(=O)Nc2ccc(C(=O)N/N=C3\SCC(=O)N3C)cc2)cc1	H37Rv			inhibition	6.25 µg/mL	0%
COc1ccc([C@@H]2CC3(C[C@H](c4ccc(OC)cc4)N2)N=c2c(c4c5c6c(C)c(O)c4c(O)c2=NC(=O)/C(C)=C\C=C\[C@H](C)[C@H](O)[C@@H](C)[C@H](O)[C@H](C)[C@H](OC(C)=O)[C@H](C)[C@@H](OC)/C=C/O[C@@](C)(O6)C5=O)N3)cc1	ATCC 35838 (rifampicin- rifabutin-resistant)			MIC		1 µg/mL
Cc1ccc2nc(SCc3cccnc3)[nH]c2c1	My 331/88			MIC		250 µM
O=c1oc2ccccc2cc1-c1cn2ccc(Br)cc2n1	H37Rv		BACTEC	inhibition	6.25 µg/mL	6%
O=C(N/N=C/c1ccco1)c1ccc(F)cc1	H37Rv			MIC		>6.25 µg/mL
c1cc(CSc2ncn[nH]2)ccn1	My 331/88			MIC		>1000 µM
CCN(CC)C(=O)Oc1c(OC)cc2ccnc3c2c1N(C)C=C3	H37Rv			MIC		>128 µg/mL
O=c1oc2c(Br)cc(Br)cc2cc1-c1cn2cc(Br)ccc2n1	H37Rv		BACTEC	MIC		>6.25 µg/mL
COc1cc2ccnc3c2c(c1OC(=O)c1ccc(C)cc1)N(C)C=C3	H37Rv			MIC		>128 µg/mL
O=C(N/N=C/c1ccc(O)cc1)c1ccc(F)cc1	H37Rv			MIC		>6.25 µg/mL
COc1cc2ccnc3c2c(c1OC(=O)CSc1ccccc1)N(C)C=C3	H37Rv			MIC		>128 µg/mL
C=CCN1C(=O)CS/C1=N\NC(=O)c1ccc(NC(=O)c2ccc(OC)cc2)cc1	H37Rv			MIC		>6.25 µg/mL
CCc1cc(C(N)=S)ccn1	H37Rv			Mean MIC		0.94 µg/mL
O=c1oc2ccccc2cc1-c1cn2ccccc2n1	H37Rv		BACTEC	MIC		>6.25 µg/mL
NC[C@H]1O[C@H](O[C@H]2[C@H](O)[C@@H](O[C@H]3O[C@H](CO)[C@@H](O)[C@H](N)[C@H]3O)[C@H](N)C[C@@H]2N)[C@H](N)C[C@@H]1O	H37Rv			Median MIC		8 µg/mL
Cc1cc(NN)c2cc(C3CCCCC3)ccc2n1	H37Rv	VERO		inhibition	12.5 µg/mL	100%
C(#Cc1ncnc2c1ncn2Cc1ccccc1)c1ccccc1	H37Rv		BACTEC	EC50		>12.5 µg/mL
NNC(=O)c1ccncc1	Pan-susceptible clinical isolate 3			MIC		0.06 µg/mL
CCCC(=O)NC(Nc1cc(C)ccn1)(C(=O)OCC)C(F)(F)F	H37Rv		BACTEC	MIC bound		>12.5 µg/mL
O=C(N/N=C/c1ccncc1)c1ccc(F)cc1	H37Rv			EC50		>6.25 µg/mL
COc1ccc(/C=N/Nc2cc(C)nc3ccc(F)cc23)c2ccccc12	H37Rv	VERO		MIC		3.13 µg/mL
O=C(O)CCc1nc2c(n1Cc1ccccc1)C(=O)c1ccccc1C2=O	H37Rv		BACTEC	MIC bound		>12.5 µg/mL
C=Cc1ncc2ncn(Cc3ccccc3)c2n1	H37Rv		BACTEC	EC50		>12.5 µg/mL
CC[C@H]1OC(=O)[C@H](C)[C@@H](O[C@H]2C[C@@](C)(OC)[C@@H](O)[C@H](C)O2)[C@H](C)[C@@H](O[C@@H]2O[C@H](C)C[C@H](N(C)C)[C@H]2O)[C@](C)(OC)C[C@@H](C)C(=O)[C@H](C)[C@@H](O)[C@]1(C)O	H37Rv			Mean MIC		8 µg/mL
COC(=O)C1=C(N2CCCC2)[C@H]2c3ccccc3S[C@@]12C(=O)OC	H37Rv		BACTEC	MIC bound		>12.5 µg/mL
c1ccc2[nH]c(SCc3ccncc3)nc2c1	My 331/88			MIC		250 µM
COc1ccc(C(=O)Nc2ccc(-c3nnc(Nc4ccc(C)cc4)o3)cc2)cc1	H37Rv			inhibition	6.25 µg/mL	0%
COc1ccc(/C=N/Nc2cc(C)nc3cc(Cl)ccc23)c2ccccc12	H37Rv	VERO		MIC		0.78 µg/mL
COc1cc2ccnc3c2c(c1OC(=O)c1cccc(F)c1F)N(C)C=C3	H37Rv			MIC		>128 µg/mL
O=c1oc2ccc(Br)cc2cc1-c1cn2cc(Br)ccc2n1	H37Rv		BACTEC	MIC		>6.25 µg/mL
COc1cc2ccnc3c2c(c1OC(=O)c1ccc(C#N)cc1)N(C)C=C3	H37Rv			MIC		>128 µg/mL
C=CCN1[C@@H](c2ccccc2)CC2(C[C@H]1c1ccccc1)N=c1c(c3c4c5c(C)c(O)c3c(O)c1=NC(=O)/C(C)=C\C=C\[C@H](C)[C@H](O)[C@@H](C)[C@H](O)[C@H](C)[C@H](OC(C)=O)[C@H](C)[C@@H](OC)/C=C/O[C@@](C)(O5)C4=O)N2	ATCC 35838 (rifampicin- rifabutin-resistant)			MIC		>1 µg/mL

Repeating the first 12 entries:

compound,strain or isolate,cell line,method,read-out,dose,result
O=C/C=C/c1ccc([N+](=O)[O-])cc1Cl,H37Rv,VERO,,MIC,,6.25 µg/mL
Nc1nc(-c2ccccc2)c2ncn(Cc3ccccc3)c2n1,H37Rv,,BACTEC,EC50,,>12.5 µg/mL
CN(C)CCOc1ccc2c(c1)C/C(=C\c1ncc([N+](=O)[O-])n1C)C2=O,H37Rv,,resazurin,MIC bound,,>6.25 µg/mL
CO[C@H]1/C=C/O[C@@]2(C)Oc3c(C)c(O)c4c(O)c(c(/C=N/N5CCN(C6CCCC6)CC5)c(O)c4c3C2=O)NC(=O)/C(C)=C\C=C\[C@H](C)[C@H](O)[C@@H](C)[C@@H](O)[C@@H](C)[C@H](OC(C)=O)[C@@H]1C,H37Ra,,,Median MIC,,0.003 µg/mL
COc1ccc(C(=O)Nc2ccc(C(=O)N/N=C/c3ccc(Cl)cc3)cc2)cc1,H37Rv,,,MIC,,>6.25 µg/mL
Cc1ccn2cc(-c3cc4cc(Br)ccc4oc3=O)nc2c1,H37Rv,,BACTEC,inhibition,6.25 µg/mL,3%
CC(=O)O[C@H]1C[C@@]2(C)[C@@H](C[C@@H](O)[C@H]3[C@@]4(C)CC[C@@H](O)[C@@H](C)[C@@H]4CC[C@@]32C)/C1=C(\CCC=C(C)C)C(=O)O,H37Ra,,,Mean MIC,,5 µg/mL
CC1=C(C(=O)NCCNC(=O)C2=C(C)OCC2)CCO1,H37Rv,,resazurin,inhibition,6.25 µg/mL,16%
Cc1ccc2nc(SCc3cccc4ccccc34)[nH]c2c1,My 331/88,,,MIC,,32 µM
CCCCc1ccc2nc(C)cc(N/N=C/c3ccc(OC)c4ccccc34)c2c1,H37Rv,VERO,,inhibition,12.5 µg/mL,100%
C[C@H]1COc2c(N3CCN(C)CC3)c(F)cc3c(=O)c(C(=O)O)cn1c23,Strain 474,,,MIC,,0.125 µg/mL
c1coc(C2=Nc3cccc4cccc(c34)N2)c1,H37Rv,,BACTEC,MIC bound,,>12.5 µg/mL